The exact form of at least one protein or probe is not confirmed. Where a protein sequence is shown, tags need not be part of it.
Columns and labels:
[1] = test system: T1, TofM-His (Burkholderia glumae BGR1); test: EMSA; conditions: increasing TofM, 10 mM HEPES pH 7.3, 20 mM KCl, 1 mM MgCl2, 1 mM DTT, 1% glycerol, 15 min at 28 C, 4% native PAGE, recombinant protein, label: 3' biotin, probe letters rebuilt from the primers and the genome
T1 sequence (looked up, limits assumed): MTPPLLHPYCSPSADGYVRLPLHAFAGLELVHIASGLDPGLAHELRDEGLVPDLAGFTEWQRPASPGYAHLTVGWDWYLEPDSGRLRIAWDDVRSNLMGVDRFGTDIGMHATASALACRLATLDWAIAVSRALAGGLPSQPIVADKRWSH

[2] = test system: T1, TofM-His (Burkholderia glumae BGR1); test: competition with a labelled probe; conditions: 4 uM TofM, 10 mM HEPES pH 7.3, 20 mM KCl, 1 mM MgCl2, 1 mM DTT, 1% glycerol, 15 min at 28 C, 4% native PAGE, recombinant protein, label: 3' biotin, probe letters rebuilt from the primers and the genome

| Sequence | binding result ([1]; 25 nM RNA) | binding result ([2]; 25 nM labeled RNA, 2.5 uM unlabeled self competitor blocks binding) | binding result ([1]; 10 nM RNA) | binding result ([2]; 10 nM labeled RNA, 1 uM unlabeled self competitor blocks binding) |
| --- | --- | --- | --- | --- |
| GGGAAUCCGAGAUAUCGCGCCGACCCUCGCGUGCCAUUUUUUCCCUGUCAAGGAUGCCAGGAAUCGGCACCGAAUCCCUGUCAGGAAUAACAGUUACCUGUCCUCGGGGCGCACGCUGUAAUGCGCCCAUUCCAAACGGAAUUACCACGAGGACACCAUGCAAACUUUCGUUCACGAGGCAGGCCGCCUUCCCGCCCAUAUCGCCGCCGAGCUGGGUUCGUACCGUUAUCGCGUGUUCGUCGAGCAGCUCGGCUGGCAGCUGCCGUCCGAAGACGAAAAAUUCGAGCGCGAUCAGUACGAUCGCGACGAU [tofI mRNA 306 nt] | binds | binds | – | – |
| GGGAAUCCGAGAUAUCGCGCCGACCCUCGCGUGCCAUUUUUUCCCUGUCAAGGAUGCCAGGAAUCGGCACCGAAUCCCUGUCAGGAAUAACAGUUACCUGUCCUCGGGGCGCACGCUGUAAUGCGCCCAUUCCAAACGGAAUUACCACGAGGACACCAUGCAAACUUUCGUUCACGAGGCAGGCCGCCUUCCCGCCCAUAUCGCCGCCGAGCUGGGUUCGUACCGUUAUCGCGUGUUCGUCGAGCAGCUCGGCUGGCAGCUGCCGUCCGAAGACGAAAAAUUCGAGCGCGAUCAGUACGAUCGCGACGAUACCGUCUACGUAUUGGGACGCGAUGCGAAUGGGGAGAUAUGCGGUUGCGCGCGGCUGCUGCCGACCACCCGCCCCUACCUGUUGCAGGAAGUGUUCCCGCACCUGCUGGCCGACGAGCAUCCGGCGCCGCGCUCCGCCCACGUCUGGGAGCUGUCGCGCUUCGCGGCGACCCCCGAGGAAGGGGCCGAUGCCGGCAGCCUGGCCUGGUCGGUGCGGCCGAUGCUCGCCGCCGCCGUGGAGUGCGCGGCACGGCGCGGCGCGCGCCAGUUGAUCGGGGUCACGUUCUGCAGCAUCGAGCGGCUGUUCCGCCGGAUCGGCGUGCAUGCCCACCGGGCCGGCGCACCGGUGUCGAUCGACGGGCGCAUGGUGGUGGCAUGCUGGAUCGACAUCGACGCGCAGACGCUGGCCGCGCUCGACCUCGACCCGGCGCUUUGCGCGUCGCAACCCGAAGCGGCCGGGGGGGGGUUUUUUUU [tofI mRNA 763 nt] | – | – | binds | binds |

— article PMC10783058
